Test results as given in PMC7925099, “Identification of an Antiretroviral Small Molecule That Appears To Be a Host-Targeting Inhibitor of HIV-1 Assembly” (Journal of Virology, 2021).

Test system: HIV-1 NL4-3
Assay type: cell-based
Details: MT-2 cells

| SMILES | compound-specific resistance mutations after selection (37 passages, sequencing) | nonsynonymous mutations that arose upon selection (mutation no. relative to HXB2) (37 weeks, Sanger sequencing) | synonymous mutations that arose upon selection (mutation no. relative to HXB2) (37 weeks, Sanger sequencing) |
| --- | --- | --- | --- |
| COc1cc(C)c(/C=C/C2NCCc3cc(OCc4ccccc4)c(OC)cc32)cc1OC (stereo not shown) [PAV-206] | no dominant PAV-206-specific mutations in the gag or pol genes | V218M Gag (V86M p24 Gag); also recorded: N302Y Env (N272Y gp120); also recorded: D547G Env (D36G gp41); also recorded: Q5_50H Env (Q39H gp41) | IATT 205 IATC Pol (IATT 50 IATC reverse trans.); also recorded: QCAG 552 QCAA Env (QCAG 41 QCAA gp41); also recorded: VGTG 583 VGTA Env (VGTG 72 VGTA gp41) |
| Cc1c(O)cccc1C(=O)N[C@@H](CSc1ccccc1)[C@H](O)CN1C[C@H]2CCCC[C@H]2C[C@H]1C(=O)NC(C)(C)C [nelfinavir, reference compound] |  | A541V Env (A30V gp41); also recorded: Q550H Env (Q39H gp41); also recorded: H219Q Gag (H87Q p24 Gag); also recorded: A224T Gag (A92T p24 Gag); also recorded: L10F protease (L66F Pol); also recorded: V77I protease (V133I Pol); also recorded: L90M protease (L146M Pol); also recorded: S144R Env (S114R gp120) |  |

“Also recorded” adds a separate entry of the source.
